Read-outs that look alike come from different tables or passages of the source.
How the values were obtained:
[1] = target: T1, N36 (gp41 NHR-derived target mimic peptide) (Human immunodeficiency virus type 1 group M subtype B, UniProt P04578); experiment: CD spectroscopy of inhibitor complexed with N36; type: binding, HIV-1; settings: thermal denaturation of complex at 222 nm, 20-98 C, 2 C/min, each peptide 10 μM in PBS; repeated two times, representative data
[2] = test system: HIV-1HXB2 Env-mediated cell-cell fusion; type: cell-based; settings: TZM-bl target, HL2/3 effector, 6 h coculture at 37 C, luciferase, triplicate, repeated three times, mean ± SD, read-out: IC50, inhibition of HIV-1HXB2 Env-mediated cell-cell fusion
[3] = target: T1, N36 (gp41 NHR-derived target mimic peptide); experiment: Isothermal titration calorimetry with N36; type: binding, HIV-1; settings: ITC, 1 mM N36 injected into 80 μM CHR peptide, 25 C; for N (reaction stoichiometric): repeated two times, representative data
[4] = test system: HIV-1NL4-3 pseudovirus; type: cell-based; settings: TZM-bl cells, 100 TCID50, peptide-virus 1 h RT, 48 h at 37 C, luciferase, triplicate, repeated three times, mean ± SD, read-out: IC50, inhibition of HIV-1NL4-3 pseudovirus entry

Row | SMILES | CD data (with N36) Tm (°C) [1] [°C] | IC50 [2] [nM] | △H (enthalpy) [3] [kJ/mol] | △S (entropy) [3] [cal/mol/deg] | N (reaction stoichiometric) [3] | IC50 ([2]; SD) [nM] | IC50 [4] [nM]
1 | CC[C@H](C)[C@H](NC(=O)[C@H](CC(C)C)NC(=O)[C@H](CCC(=O)O)NC(=O)[C@H](CCC(=O)O)NC(=O)[C@@H](NC(=O)[C@H](CCCCN)NC(=O)[C@H](CCCCN)NC(=O)[C@@H](NC(=O)[C@H](Cc1ccc(O)cc1)NC(=O)[C@H](CCC(=O)O)NC(=O)[C@H](CCC(=O)O)NC(=O)[C@@H](NC(=O)[C@H](CCCCN)NC(=O)[C@H](CCCCN)NC(=O)[C@H](CC(=O)O)NC(=O)[C@H](Cc1c[nH]c2ccccc12)NC(=O)[C@H](CCC(=O)O)NC(=O)[C@H](CCC(=O)O)NC(=O)[C@H](Cc1c[nH]c2ccccc12)NC(C)=O)[C@@H](C)CC)[C@@H](C)O)[C@@H](C)CC)C(=O)N[C@@H](CCCCN)C(=O)N[C@@H](CCCCN)C(=O)N[C@@H](CO)C(=O)N[C@@H](CCC(=O)O)C(=O)N[C@@H](CCC(=O)O)C(=O)N[C@@H](CCC(N)=O)C(=O)N[C@@H](CCC(N)=O)C(=O)N[C@@H](CCCCN)C(=O)N[C@@H](CCCCN)C(=O)N[C@@H](CC(N)=O)C(N)=O [SC29EK, reference compound] | 63.3 | 1 | -66.1 | −23.6 | 1.1 | – | –
2 | CC[C@H](C)[C@H](NC(=O)[C@H](CC(C)C)NC(=O)[C@H](CCC(=O)O)NC(=O)[C@H](CCC(=O)O)NC(=O)[C@@H](NC(=O)[C@H](CCCCN)NC(=O)[C@H](CCCCN)NC(=O)[C@@H](NC(=O)[C@H](Cc1ccc(O)cc1)NC(=O)[C@H](CCC(=O)O)NC(=O)[C@H](CCC(=O)O)NC(=O)[C@@H](NC(=O)[C@H](CCCCN)NC(=O)[C@H](CCCCN)NC(=O)[C@H](CC(=O)O)NC(=O)[C@H](Cc1c[nH]c2ccccc12)NC(=O)[C@H](CCC(=O)O)NC(=O)[C@H](CCC(=O)O)NC(=O)[C@H](Cc1c[nH]c2ccccc12)NC(C)=O)[C@@H](C)CC)[C@@H](C)O)[C@@H](C)CC)C(=O)N[C@@H](CCCCN)C(=O)N[C@@H](CCCCN)C(=O)N[C@@H](CO)C(=O)N[C@@H](CCC(=O)O)C(=O)N[C@@H](CCC(=O)O)C(=O)N[C@@H](CCC(N)=O)C(=O)N[C@@H](CCC(N)=O)C(=O)N[C@@H](CCCCN)C(=O)N[C@@H](CCCCN)C(N)=O [SC28EK] | 57.6 | 13 | -37.7 | −3.66 | 1.3 | – | –
3 | CC[C@H](C)[C@H](NC(=O)[C@H](CC(C)C)NC(=O)[C@H](CO)NC(=O)[C@H](Cc1c[nH]cn1)NC(=O)[C@@H](NC(=O)[C@H](CC(C)C)NC(=O)[C@H](CO)NC(=O)[C@@H](NC(=O)[C@H](Cc1ccc(O)cc1)NC(=O)[C@H](CC(N)=O)NC(=O)[C@H](CC(N)=O)NC(=O)[C@@H](NC(=O)[C@H](CCC(=O)O)NC(=O)[C@H](CCCNC(=N)N)NC(=O)[C@H](CC(=O)O)NC(=O)[C@H](Cc1c[nH]c2ccccc12)NC(=O)[C@H](CCC(=O)O)NC(=O)[C@H](CCSC)NC(=O)[C@H](Cc1c[nH]c2ccccc12)NC(C)=O)[C@@H](C)CC)[C@@H](C)O)[C@@H](C)CC)C(=O)N[C@@H](CCC(=O)O)C(=O)N[C@@H](CCC(=O)O)C(=O)N[C@@H](CO)C(=O)N[C@@H](CCC(N)=O)C(=O)N[C@@H](CC(N)=O)C(=O)N[C@@H](CCC(N)=O)C(=O)N[C@@H](CCC(N)=O)C(=O)N[C@@H](CCC(=O)O)C(=O)N[C@@H](CCCCN)C(=O)N[C@@H](C)C(=O)N[C@@H](CCC(=O)O)C(=O)N[C@@H](CCC(N)=O)C(=O)N[C@@H](CCC(=O)O)C(=O)N[C@@H](CC(C)C)C(=O)N[C@@H](CC(C)C)C(N)=O [C34N145A] | 51 | – | -54.8 | −14.8 | 1.1 | 2.2 ± 0.5 | 4.8 ± 0.7
4 | CC[C@H](C)[C@H](NC(=O)[C@H](CC(C)C)NC(=O)[C@H](CCC(=O)O)NC(=O)[C@H](CCC(=O)O)NC(=O)[C@@H](NC(=O)[C@H](CCCCN)NC(=O)[C@H](CCCCN)NC(=O)[C@@H](NC(=O)[C@H](Cc1ccc(O)cc1)NC(=O)[C@H](CCC(=O)O)NC(=O)[C@H](CCC(=O)O)NC(=O)[C@@H](NC(=O)[C@H](CCCCN)NC(=O)[C@H](CCCCN)NC(=O)[C@H](CC(=O)O)NC(=O)[C@H](Cc1c[nH]c2ccccc12)NC(=O)[C@H](CCC(=O)O)NC(=O)[C@H](CCC(=O)O)NC(=O)[C@H](Cc1c[nH]c2ccccc12)NC(C)=O)[C@@H](C)CC)[C@@H](C)O)[C@@H](C)CC)C(=O)N[C@@H](CCCCN)C(=O)N[C@@H](CCCCN)C(=O)N[C@@H](CO)C(=O)N[C@@H](CCC(=O)O)C(=O)N[C@@H](CCC(=O)O)C(=O)N[C@@H](CCC(N)=O)C(=O)N[C@@H](CCC(N)=O)C(=O)N[C@@H](CCCCN)C(=O)N[C@@H](CCCCN)C(=O)N[C@@H](CC(N)=O)C(=O)N[C@@H](CCC(=O)O)C(N)=O [SC30EK] | 68.4 | – | – | – | – | 0.9 ± 0.1 | –
5 | CC[C@H](C)[C@H](NC(=O)[C@H](CC(C)C)NC(=O)[C@H](CCC(=O)O)NC(=O)[C@H](CCC(=O)O)NC(=O)[C@@H](NC(=O)[C@H](CCCCN)NC(=O)[C@H](CCCCN)NC(=O)[C@@H](NC(=O)[C@H](Cc1ccc(O)cc1)NC(=O)[C@H](CCC(=O)O)NC(=O)[C@H](CCC(=O)O)NC(=O)[C@@H](NC(=O)[C@H](CCCCN)NC(=O)[C@H](CCCCN)NC(=O)[C@H](CC(=O)O)NC(=O)[C@H](Cc1c[nH]c2ccccc12)NC(=O)[C@H](CCC(=O)O)NC(=O)[C@H](CCC(=O)O)NC(=O)[C@H](Cc1c[nH]c2ccccc12)NC(=O)[C@@H](NC(=O)[C@H](CCSC)NC(C)=O)[C@@H](C)O)[C@@H](C)CC)[C@@H](C)O)[C@@H](C)CC)C(=O)N[C@@H](CCCCN)C(=O)N[C@@H](CCCCN)C(=O)N[C@@H](CO)C(=O)N[C@@H](CCC(=O)O)C(=O)N[C@@H](CCC(=O)O)C(=O)N[C@@H](CCC(N)=O)C(=O)N[C@@H](CCC(N)=O)C(=O)N[C@@H](CCCCN)C(N)=O [MT-SC27EK] | 70 | – | – | – | – | 1.4 ± 0.6 | –
